Calls of active or inactive are those of the source.
Experiments:
[1] = system: Burkholderia pseudomallei; experiment: Antibacterial activity against Burkholderia pseudomallei 1026b infected in BALB/c mouse assessed as decrease in bacterial burden in lung at 25 mg/kg, ip administered 6 hrs postinfection at 12 hrs interval for 3 days measured after 48 hrs of bacterial infection in presence of 20 uL …
[2] = system: Burkholderia pseudomallei; experiment: Antibacterial activity against Burkholderia pseudomallei 1026b infected in BALB/c mouse assessed as decrease in bacterial burden in liver at 25 mg/kg, ip administered 6 hrs postinfection at 12 hrs interval for 3 days measured after 48 hrs of bacterial infection in presence of 20 uL …
[3] = system: Burkholderia pseudomallei; experiment: Antibacterial activity against Burkholderia pseudomallei 1026b infected in BALB/c mouse assessed as decrease in bacterial burden in spleen at 25 mg/kg, ip administered 6 hrs postinfection at 12 hrs interval for 3 days measured after 48 hrs of bacterial infection in presence of 20 uL …
[4] = system: Burkholderia pseudomallei; experiment: Antibacterial activity against Burkholderia pseudomallei 1026b infected in BALB/c mouse assessed as increase in survival rate at 25 mg/kg, ip administered 6 hrs postinfection at 12 hrs interval for 3 days measured on day 60 in presence of IFN-gamma-harboring cationic liposome-DNA complex
[5] = system: Burkholderia pseudomallei; experiment: Antibacterial activity against Burkholderia pseudomallei 1026b infected in BALB/c mouse assessed as increase in survival rate at 25 mg/kg, ip administered 6 hrs postinfection at 12 hrs interval for 3 days measured on day 20 in presence of IFN-gamma-harboring cationic liposome-DNA complex

CC(C)(O/N=C(\C(=O)N[C@@H]1C(=O)N2C(C(=O)[O-])=C(C[n+]3ccccc3)CS[C@H]12)c1csc(N)n1)C(=O)O [CEFTAZIDIME]
active: inhibition [1] | inhibition [2] | inhibition [3] | Activity [4] | Activity [5]

Source: ChEMBL document CHEMBL1255439 (2010)
